## Zika virus NS2B-NS3: effect of single substitutions on growth in cell culture

The scanned region of Zika virus MR766 is shown below (positions 1-308): NS2B is 2-131, NS3 begins at position 132.
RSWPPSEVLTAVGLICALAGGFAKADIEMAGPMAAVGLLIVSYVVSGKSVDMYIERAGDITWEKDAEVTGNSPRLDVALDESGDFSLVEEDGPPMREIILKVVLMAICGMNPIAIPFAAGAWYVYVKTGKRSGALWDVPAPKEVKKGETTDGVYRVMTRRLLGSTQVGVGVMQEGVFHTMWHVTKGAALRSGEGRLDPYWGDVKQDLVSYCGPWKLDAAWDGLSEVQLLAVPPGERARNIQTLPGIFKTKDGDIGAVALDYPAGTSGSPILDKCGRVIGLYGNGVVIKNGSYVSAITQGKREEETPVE

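Mutant virus pools were grown in human Huh-7.5 cells. The effect is the change in frequency of a mutant, normalised to wild type, as a mean of three replicate libraries (two for positions 207-308). The study looked for pockets that tolerate few changes, as a guide for inhibitor design.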

The number is log2 of the effect relative to wild type; negative values mean reduced growth, higher values better tolerance.
Each entry names the wild-type residue, its position and the residue put in its place.
This list holds changes to threonine only.
Positions 1-103, 104-206 and 207-308 were made and measured as separate libraries.
Values above 0 are not proof of better growth: six high scorers were tested one by one, five grew less well than wild type and one about as well.
The authors count -1 or higher as tolerated. Position 1 is the last residue of NS2A.

substitution,log2 effect
P233T,-6.60
G234T,-4.80
E235T,-1.94
R236T,1.63
A237T,1.18
R238T,1.95
N239T,-7.06
I240T,1.09
Q241T,-7.64
L243T,-0.35
P244T,-6.16
G245T,-6.57
I246T,-0.40
F247T,-6.65
K248T,-3.79
K250T,-2.66
D251T,-2.47
G252T,-3.97
D253T,-1.82
I254T,-4.74
G255T,-7.05
A256T,-6.65
V257T,-5.56
A258T,-6.73
L259T,-6.00
D260T,-5.36
Y261T,-5.03
P262T,-5.96
A263T,-6.44
G264T,-5.94
S266T,-4.83
G267T,-5.87
S268T,-6.13
P269T,-6.20
I270T,-5.49
L271T,-4.73
D272T,-4.23
K273T,-2.61
C274T,-0.65
G275T,-4.86
R276T,-5.77
V277T,-5.08
I278T,-5.90
G279T,-5.62
L280T,-6.28
Y281T,-5.67
G282T,-5.43
N283T,-6.50
G284T,-5.75
V285T,-5.38
V286T,-6.24
I287T,0.89
K288T,-3.31
N289T,-6.75
G290T,-6.30
S291T,-0.34
Y292T,-4.70
V293T,-5.68
S294T,-6.24
A295T,-6.52
I296T,-4.78
Q298T,-5.76
G299T,-5.65
K300T,-4.77
R301T,-5.33
E302T,0.47
E303T,-1.02
E304T,-0.50
P306T,-2.29
V307T,0.30
E308T,0.14

Extract of 5 entries:

- G282T = -5.43
- I246T = -0.40
- L259T = -6.00
- Y281T = -5.67
- V285T = -5.38

Reference: Ni et al. 2025, doi:10.1038/s41467-025-63602-z.